Measured values: publication PMC9271885 (eBioMedicine, 2022)

Tested on: SARS-CoV-2
Assay type: cell-based
Conditions: 3 and 4 dpi, NTZ concentrations above its EC50 (5, 10, 20µM)

CC(=O)Oc1ccccc1C(=O)Nc1ncc([N+](=O)[O-])s1 [NTZ, Nitazoxanide]
infectious titers vs untreated: significant reduction of infectious titers
